{"source": "patent US20170233441A1", "key": {"[1]": {"target": "BG505.SOSIP.664.201C-433C HIV-1 Env ectodomain trimer (HIV-1 strain BG505)", "test": "SPR"}, "[2]": {"target": "BG505.SOSIP.664.201C-433C HIV-1 Env ectodomain trimer (HIV-1 strain BG505)", "test": "sedimentation equilibrium analytical ultracentrifugation with excess CD4 d1d2"}}, "data": [{"substance": "soluble CD4 (sCD4) (from UniProt P01730 26-396) (receptor; other documents disagree on this pair)", "values": [{"measurement": "fold change of KD relative to SOSIP.664", "setting": "[1]", "result": 10, "unit": "fold"}, {"measurement": "fold change of off-rate relative to SOSIP.664", "setting": "[1]", "result": 10, "unit": "fold"}, {"measurement": "CD4 molecules bound per trimer (CD4 molecules per trimer)", "setting": "[2]", "result": 1}]}]}
